Results of unrelated studies side by side (data: NIAID ChemDB).

Shared fields: cytotoxicity tests; cells: HepG2; read by: MTS; measure: CC50

Neighbouring rows are from separate reports. CCn: concentration that lowers growth or viability of the cells by n%. a–b is a range or a potency band.

| compound | result |
|---|---|
| COc1cccc2ccc(N3CCC(c4nc(-c5cccnc5)no4)CC3)nc12 | 50–100 µM |
| CC[C@H]1OC(=O)[C@H](C)[C@@H](O[C@H]2C[C@@](C)(OC)[C@@H](O)[C@H](C)O2)[C@H](C)[C@@H](O[C@@H]2O[C@H](C)C[C@H](N(C)C)[C@H]2OCCCN(C)Cc2ccnc3ccccc23)[C@](C)(O)C[C@@H](C)CN(C)[C@H](C)[C@@H](O)[C@]1(C)O | 45 µM |
| C[C@@H]1[C@H](n2ccc(N)nc2=O)O[C@@](CO)(N=[N+]=[N-])[C@H]1O | 300 µM |
| CC[C@H]1OC(=O)[C@H](C)[C@@H](O[C@H]2C[C@@](C)(OC)[C@@H](O)[C@H](C)O2)[C@H](C)[C@@H](O[C@@H]2O[C@H](C)C[C@H](N(C)C)[C@H]2OCCCNC(=O)CNc2ccnc3ccccc23)[C@](C)(O)C[C@@H](C)CN(C)[C@H](C)[C@@H](O)[C@]1(C)O | >100 µM |
| COc1cccc2ccc(N3CCC(c4nc(-c5ccc(C(F)(F)F)nc5)no4)CC3)nc12 | 20–50 µM |
| CCOC(=O)[C@H](C)NP(=O)(OC[C@@H]1OC[C@H](n2cnc3c(N)nc(N)nc32)O1)Oc1ccccc1 | >100 µM |
| CC[C@H]1OC(=O)[C@H](C)[C@@H](O)[C@H](C)[C@@H](O[C@@H]2O[C@H](C)C[C@H](N(C)C)[C@H]2OCCCNc2ccnc3cc(Cl)ccc23)[C@](C)(O)C[C@@H](C)CN(C)[C@H](C)[C@@H](O)[C@]1(C)O | 83 µM |
| CC[C@H]1OC(=O)[C@H](C)[C@@H](O)[C@H](C)[C@@H](O[C@@H]2O[C@H](C)C[C@H](N(C)CCCNC(=O)CCCNc3ccnc4cc(Cl)ccc34)[C@H]2O)[C@](C)(O)C[C@@H](C)CN(C)[C@H](C)[C@@H](O)[C@]1(C)O | >50 µM |
| Clc1cccc2ccc(N3CCC(c4nc(-c5cccnc5)no4)CC3)nc12 | 50–100 µM |
| CC[C@H]1OC(=O)[C@H](C)[C@@H](O[C@H]2C[C@@](C)(OC)[C@@H](O)[C@H](C)O2)[C@H](C)[C@@H](O[C@@H]2O[C@H](C)C[C@H](N(C)C(=O)CCCNc3ccnc4cc(Cl)ccc34)[C@H]2O)[C@](C)(O)C[C@@H](C)CN(C)[C@H](C)[C@@H](O)[C@]1(C)O | >50 µM |
| CCCCCCCCCC(=O)Nc1nc(N)nc2c1ncn2[C@H]1CO[C@@H](COP(=O)(N[C@@H](C)C(=O)OCC)Oc2ccccc2)O1 | 9.5 µM |
| COc1cccc2ccc(N3CCC(c4nc(-c5ccc(OC(F)(F)F)cc5)no4)CC3)nc12 | >100 µM |
| CC[C@H]1OC(=O)[C@H](C)[C@@H](O[C@H]2C[C@@](C)(OC)[C@@H](O)[C@H](C)O2)[C@H](C)[C@@H](O[C@@H]2O[C@H](C)C[C@H](N(C)C)[C@H]2OCCC(=O)NCCNc2ccnc3cc(Cl)ccc23)[C@](C)(O)C[C@@H](C)CN(C)[C@H](C)[C@@H](O)[C@]1(C)O | 18 µM |
| CCCC(=O)Nc1nc(N)nc2c1ncn2[C@H]1CO[C@@H](COP(=O)(N[C@@H](C)C(=O)OCC)Oc2ccccc2)O1 | >100 µM |
| CC[C@H]1OC(=O)[C@H](C)[C@@H](O)[C@H](C)[C@@H](O[C@@H]2O[C@H](C)C[C@H](N(C)C)[C@H]2OCCCN(C)Cc2cnc3ccccc3c2)[C@](C)(O)C[C@@H](C)CN(C)[C@H](C)[C@@H](O)[C@]1(C)O | >100 µM |
| CCCCCCCCCCCCCC(=O)Nc1nc(N)nc2c1ncn2[C@H]1CO[C@@H](COP(=O)(N[C@@H](C)C(=O)OCC)Oc2ccccc2)O1 | 57 µM |
| CC[C@H]1OC(=O)[C@H](C)[C@@H](O[C@H]2C[C@@](C)(OC)[C@@H](O)[C@H](C)O2)[C@H](C)[C@@H](O[C@@H]2O[C@H](C)C[C@H](N(C)C)[C@H]2OCCCNc2ccnc3cc(Cl)ccc23)[C@](C)(O)C[C@@H](C)CN(C)[C@H](C)[C@@H](O)[C@]1(C)O | 45 µM |
| CCOC(=O)c1cc(O)c(O)c(O)c1 | >200 µM |

2 of the rows above, restated:

compound,result
COc1cccc2ccc(N3CCC(c4nc(-c5cccnc5)no4)CC3)nc12,50–100 µM
CC[C@H]1OC(=O)[C@H](C)[C@@H](O[C@H]2C[C@@](C)(OC)[C@@H](O)[C@H](C)O2)[C@H](C)[C@@H](O[C@@H]2O[C@H](C)C[C@H](N(C)C(=O)CCCNc3ccnc4cc(Cl)ccc34)[C@H]2O)[C@](C)(O)C[C@@H](C)CN(C)[C@H](C)[C@@H](O)[C@]1(C)O,>50 µM